Laboratory results from patent US20220401514A1, “ANTIMICROBIAL, BACTERIOPHAGE-DERIVED POLYPEPTIDES AND THEIR USE AGAINST GRAM-NEGATIVE AND ACID-FAST BACTERIA” (CONTRAFECT CORPORATION, priority 2019, published 2022).

Experiments:
[1] = system: P. aeruginosa strain CFS 1292; format: cell-based, Pseudomonas aeruginosa; conditions: serial passage
[2] = system: P. aeruginosa strain CFS-1292; format: cell-based, Pseudomonas aeruginosa; conditions: CAA media with agent at 4×MIC; resistant colonies after 48 hours / total CFUs

SMILES	change in MIC after 21 days [1]	frequency (spontaneous resistance) [2]
O=C(O)c1cn(C2CC2)c2cc(N3CCNCC3)c(F)cc2c1=O [ciprofloxacin, reference compound]	significant increases	–
NC[C@H]1O[C@H](O[C@H]2[C@H](O)[C@@H](O[C@H]3O[C@H](CO)[C@@H](O)[C@H](N)[C@H]3O)[C@H](N)C[C@@H]2N)[C@H](N)C[C@@H]1O [tobramycin, reference compound]	–	3.85E−09
